Experiments:
Assay in all cases: cell-based or functional assay
[1] = target: HIV-1 envelope glycoprotein (gp120) of virus 92US727 (HIV-1)
[2] = target: HIV-1 envelope glycoprotein (gp120) of virus VS001 (HIV-1)
[3] = target: HIV-1 envelope glycoprotein (gp120) of virus 7141 (HIV-1)

| Binder | Neutralization IC50 [1] [µg/mL] | Neutralization IC50 [2] [µg/mL] | Neutralization IC50 [3] [µg/mL] |
| --- | --- | --- | --- |
| 1.1.124-1 (antibody, human IgG1, kappa) heavy: QVQLLQSGAAVTKPGASVRVSCEASGYNIRDYFIHWWRQAPGQGLQWVGWINPKTGQPNNPRQFQGRVSLTRHASWDFDTFSFYMDLKALRSDDTAVYFCARQRSDYWDFDVWGSGTQVTVSSASTKGPSVFPLAPSSKSTSGGTAALGCLVKDYFPEPVTVSWNSGALTSGVHTFPAVLQSSGLYSLSSVVTVPSSSLGTQTYICNVNHKPSNTKVDKKVEPKSCDKTHTCPPCPAPELLAGPDVFLFPPKPKDTLMISRTPEVTCVVVDVSHEDPEVKFNWYVDGVEVHNAKTKPREEQYNSTYRVVSVLTVLHQDWLNGKEYKCKVSNKALPLPEEKTISKAKGQPREPQVYTLPPSREEMTKNQVSLTCLVKGFYPSDIAVEWESNGQPENNYKTTPPVLDSDGSFFLYSKLTVDKSRWQQGNVFSCSVLHEALHSHYTQKSLSLSPGK light: not shown | > 25.4 | 0.3 | 9.87 |
| 1.1.128-1 (antibody, human IgG1, kappa) heavy: QVQLLQSGAAVTKPGASVRVSCEASGYNIRDYFIHWWRQAPGQGLQWVGWINPKTGQPNNPRQFQGRVSLTRHASWDFDTFSFYMDLKALRSDDTAVYFCARQRSDYWDFDVWGSGTQVTVSSASTKGPSVFPLAPSSKSTSGGTAALGCLVKDYFPEPVTVSWNSGALTSGVHTFPAVLQSSGLYSLSSVVTVPSSSLGTQTYICNVNHKPSNTKVDKKVEPKSCDKTHTCPPCPAPELLAGPDVFLFPPKPKDTLMISRTPEVTCVVVDVSHEDPEVKFNWYVDGVEVHNAKTKPREEQYNSTYRVVSVLTVLHQDWLNGKEYKCKVSNKALPLPEEKTISKAKGQPREPQVYTLPPSREEMTKNQVSLTCLVKGFYPSDIAVEWESNGQPENNYKTTPPVLDSDGSFFLYSKLTVDKSRWQQGNVFSCSVLHEALHSHYTQKSLSLSPGK light: not shown | > 28.3 | 0.67 | 9.5 |
| 1.1.133-1 (antibody, human IgG1, kappa) heavy: QVQLLQSGAAVTKPGASVRVSCEASGYNIRDYFIHWWRQAPGQGLQWVGWINPKTGQPNNPRQFQGRVSLTRHASWDFDTFSFYMDLKALRSDDTAVYFCARQRSDYWDFDVWGSGTQVTVSSASTKGPSVFPLAPSSKSTSGGTAALGCLVKDYFPEPVTVSWNSGALTSGVHTFPAVLQSSGLYSLSSVVTVPSSSLGTQTYICNVNHKPSNTKVDKKVEPKSCDKTHTCPPCPAPELLAGPDVFLFPPKPKDTLMISRTPEVTCVVVDVSHEDPEVKFNWYVDGVEVHNAKTKPREEQYNSTYRVVSVLTVLHQDWLNGKEYKCKVSNKALPLPEEKTISKAKGQPREPQVYTLPPSREEMTKNQVSLTCLVKGFYPSDIAVEWESNGQPENNYKTTPPVLDSDGSFFLYSKLTVDKSRWQQGNVFSCSVLHEALHSHYTQKSLSLSPGK light: not shown | 2.27 | 0.16 | 3.38 |
| 1.1.132-1 (antibody, human IgG1, kappa) heavy: QVQLLQSGAAVTKPGASVRVSCEASGYNIRDYFIHWWRQAPGQGLQWVGWINPKTGQPNNPRQFQGRVSLTRHASWDFDTFSFYMDLKALRSDDTAVYFCARQRSDYWDFDVWGSGTQVTVSSASTKGPSVFPLAPSSKSTSGGTAALGCLVKDYFPEPVTVSWNSGALTSGVHTFPAVLQSSGLYSLSSVVTVPSSSLGTQTYICNVNHKPSNTKVDKKVEPKSCDKTHTCPPCPAPELLAGPDVFLFPPKPKDTLMISRTPEVTCVVVDVSHEDPEVKFNWYVDGVEVHNAKTKPREEQYNSTYRVVSVLTVLHQDWLNGKEYKCKVSNKALPLPEEKTISKAKGQPREPQVYTLPPSREEMTKNQVSLTCLVKGFYPSDIAVEWESNGQPENNYKTTPPVLDSDGSFFLYSKLTVDKSRWQQGNVFSCSVLHEALHSHYTQKSLSLSPGK light: not shown | 2.26 | 0.14 | 3.39 |
| 1.1.126-1 (antibody, human IgG1, kappa) heavy: QVQLLQSGAAVTKPGASVRVSCEASGYNIRDYFIHWWRQAPGQGLQWVGWINPKTGQPNNPRQFQGRVSLTRHASWDFDTFSFYMDLKALRSDDTAVYFCARQRSDYWDFDVWGSGTQVTVSSASTKGPSVFPLAPSSKSTSGGTAALGCLVKDYFPEPVTVSWNSGALTSGVHTFPAVLQSSGLYSLSSVVTVPSSSLGTQTYICNVNHKPSNTKVDKKVEPKSCDKTHTCPPCPAPELLAGPDVFLFPPKPKDTLMISRTPEVTCVVVDVSHEDPEVKFNWYVDGVEVHNAKTKPREEQYNSTYRVVSVLTVLHQDWLNGKEYKCKVSNKALPLPEEKTISKAKGQPREPQVYTLPPSREEMTKNQVSLTCLVKGFYPSDIAVEWESNGQPENNYKTTPPVLDSDGSFFLYSKLTVDKSRWQQGNVFSCSVLHEALHSHYTQKSLSLSPGK light: not shown | > 50 | 0.35 | 6.49 |
| 1.1.125-1 (antibody, human IgG1, kappa) heavy: QVQLLQSGAAVTKPGASVRVSCEASGYNIRDYFIHWWRQAPGQGLQWVGWINPKTGQPNNPRQFQGRVSLTRHASWDFDTFSFYMDLKALRSDDTAVYFCARQRSDYWDFDVWGSGTQVTVSSASTKGPSVFPLAPSSKSTSGGTAALGCLVKDYFPEPVTVSWNSGALTSGVHTFPAVLQSSGLYSLSSVVTVPSSSLGTQTYICNVNHKPSNTKVDKKVEPKSCDKTHTCPPCPAPELLAGPDVFLFPPKPKDTLMISRTPEVTCVVVDVSHEDPEVKFNWYVDGVEVHNAKTKPREEQYNSTYRVVSVLTVLHQDWLNGKEYKCKVSNKALPLPEEKTISKAKGQPREPQVYTLPPSREEMTKNQVSLTCLVKGFYPSDIAVEWESNGQPENNYKTTPPVLDSDGSFFLYSKLTVDKSRWQQGNVFSCSVLHEALHSHYTQKSLSLSPGK light: not shown | > 50 | 0.37 | 7.69 |
| 1.1.130-1 (antibody, human IgG1, kappa) heavy: QVQLLQSGAAVTKPGASVRVSCEASGYNIRDYFIHWWRQAPGQGLQWVGWINPKTGQPNNPRQFQGRVSLTRHASWDFDTFSFYMDLKALRSDDTAVYFCARQRSDYWDFDVWGSGTQVTVSSASTKGPSVFPLAPSSKSTSGGTAALGCLVKDYFPEPVTVSWNSGALTSGVHTFPAVLQSSGLYSLSSVVTVPSSSLGTQTYICNVNHKPSNTKVDKKVEPKSCDKTHTCPPCPAPELLAGPDVFLFPPKPKDTLMISRTPEVTCVVVDVSHEDPEVKFNWYVDGVEVHNAKTKPREEQYNSTYRVVSVLTVLHQDWLNGKEYKCKVSNKALPLPEEKTISKAKGQPREPQVYTLPPSREEMTKNQVSLTCLVKGFYPSDIAVEWESNGQPENNYKTTPPVLDSDGSFFLYSKLTVDKSRWQQGNVFSCSVLHEALHSHYTQKSLSLSPGK light: not shown | > 27.3 | 1.67 | 16.7 |
| 1.1.134-1 (antibody, human IgG1, kappa) heavy: QVQLLQSGAAVTKPGASVRVSCEASGYNIRDYFIHWWRQAPGQGLQWVGWINPKTGQPNNPRQFQGRVSLTRHASWDFDTFSFYMDLKALRSDDTAVYFCARQRSDYWDFDVWGSGTQVTVSSASTKGPSVFPLAPSSKSTSGGTAALGCLVKDYFPEPVTVSWNSGALTSGVHTFPAVLQSSGLYSLSSVVTVPSSSLGTQTYICNVNHKPSNTKVDKKVEPKSCDKTHTCPPCPAPELLAGPDVFLFPPKPKDTLMISRTPEVTCVVVDVSHEDPEVKFNWYVDGVEVHNAKTKPREEQYNSTYRVVSVLTVLHQDWLNGKEYKCKVSNKALPLPEEKTISKAKGQPREPQVYTLPPSREEMTKNQVSLTCLVKGFYPSDIAVEWESNGQPENNYKTTPPVLDSDGSFFLYSKLTVDKSRWQQGNVFSCSVLHEALHSHYTQKSLSLSPGK light: not shown | 4.23 | 0.22 | 3.15 |
| 1.1.127-1 (antibody, human IgG1, kappa) heavy: QVQLLQSGAAVTKPGASVRVSCEASGYNIRDYFIHWWRQAPGQGLQWVGWINPKTGQPNNPRQFQGRVSLTRHASWDFDTFSFYMDLKALRSDDTAVYFCARQRSDYWDFDVWGSGTQVTVSSASTKGPSVFPLAPSSKSTSGGTAALGCLVKDYFPEPVTVSWNSGALTSGVHTFPAVLQSSGLYSLSSVVTVPSSSLGTQTYICNVNHKPSNTKVDKKVEPKSCDKTHTCPPCPAPELLAGPDVFLFPPKPKDTLMISRTPEVTCVVVDVSHEDPEVKFNWYVDGVEVHNAKTKPREEQYNSTYRVVSVLTVLHQDWLNGKEYKCKVSNKALPLPEEKTISKAKGQPREPQVYTLPPSREEMTKNQVSLTCLVKGFYPSDIAVEWESNGQPENNYKTTPPVLDSDGSFFLYSKLTVDKSRWQQGNVFSCSVLHEALHSHYTQKSLSLSPGK light: not shown | > 23 | 0.18 | 5.78 |
| 1.1.131-1 (antibody, human IgG1, kappa) heavy: QVQLLQSGAAVTKPGASVRVSCEASGYNIRDYFIHWWRQAPGQGLQWVGWINPKTGQPNNPRQFQGRVSLTRHASWDFDTFSFYMDLKALRSDDTAVYFCARQRSDYWDFDVWGSGTQVTVSSASTKGPSVFPLAPSSKSTSGGTAALGCLVKDYFPEPVTVSWNSGALTSGVHTFPAVLQSSGLYSLSSVVTVPSSSLGTQTYICNVNHKPSNTKVDKKVEPKSCDKTHTCPPCPAPELLAGPDVFLFPPKPKDTLMISRTPEVTCVVVDVSHEDPEVKFNWYVDGVEVHNAKTKPREEQYNSTYRVVSVLTVLHQDWLNGKEYKCKVSNKALPLPEEKTISKAKGQPREPQVYTLPPSREEMTKNQVSLTCLVKGFYPSDIAVEWESNGQPENNYKTTPPVLDSDGSFFLYSKLTVDKSRWQQGNVFSCSVLHEALHSHYTQKSLSLSPGK light: not shown | > 31.9 | 0.57 | 16.4 |
| 1.1.129-1 (antibody, human IgG1, kappa) heavy: QVQLLQSGAAVTKPGASVRVSCEASGYNIRDYFIHWWRQAPGQGLQWVGWINPKTGQPNNPRQFQGRVSLTRHASWDFDTFSFYMDLKALRSDDTAVYFCARQRSDYWDFDVWGSGTQVTVSSASTKGPSVFPLAPSSKSTSGGTAALGCLVKDYFPEPVTVSWNSGALTSGVHTFPAVLQSSGLYSLSSVVTVPSSSLGTQTYICNVNHKPSNTKVDKKVEPKSCDKTHTCPPCPAPELLAGPDVFLFPPKPKDTLMISRTPEVTCVVVDVSHEDPEVKFNWYVDGVEVHNAKTKPREEQYNSTYRVVSVLTVLHQDWLNGKEYKCKVSNKALPLPEEKTISKAKGQPREPQVYTLPPSREEMTKNQVSLTCLVKGFYPSDIAVEWESNGQPENNYKTTPPVLDSDGSFFLYSKLTVDKSRWQQGNVFSCSVLHEALHSHYTQKSLSLSPGK light: not shown | > 29.7 | 2.09 | > 29.7 |

From patent publication US20220089698A1, “ANTIBODIES THAT TARGET HIV GP120 AND METHODS OF USE” (published 2022)
